Reference: patent publication US6482802B1 (Endowment for Research in Human Biology, Inc., priority 1998, dated 2002)

Test system: nuclear translocation of 125I-angiogenin in HUVE cells
Experiment: Nuclear translocation of 125I-angiogenin in HUVE cells
Details: inhibitor 10 μM, 125I-angiogenin 1 μg/ml 30 min

Compound: O=[As]c1ccccc1 (centres unmarked)
- Nuclear 125I-angiogenin (37° C. 30 min, control 3090 ± 260): 3040 ± 70 cpm
- % inhibition of nuclear translocation of angiogenin: 0%
